PubChem BioAssay AID624099, ICCB-Longwood | 2012
Shown is a random part of about 21,000 deposited reagents. 497 of them (2.4%) were called active. 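Higher z means weaker E2 silencing; only reporter increases were scored, and knock-downs that hurt cell survival may mask genuine repressor factors.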 No sequences are given here.

Assay: 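Human genes that papillomavirus E2 requires to repress the HPV18 LCR promoter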 (primary screen)
System: human C33A cervical carcinoma cells (HPV-negative) stably expressing BPV1 E2 and an HPV18 LCR luciferase reporter
Knock-down reagent: siRNA pool against human genes, 40 nM
Time to read-out: 72 h
Measurement: 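Per-well luciferase luminescence, z-scored on each plate against the plate mean and SD with control wells left out, then averaged across three replicate plates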
Reading the numbers: mean z-score and z-score: higher = stronger reporter signal, weaker E2 silencing
Active means: 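Hit if mean z-score reaches 2 and two or more of three replicate z-scores also reach 2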

CFAP99 (cilia and flagella associated protein 99) — mean z-score: -0.8; z-score, replicate A: -0.29; z-score, replicate B: -1.33; z-score, replicate C: -0.79; activity call: inactive
FAM225B (family with sequence similarity 225 member B) — mean z-score: -1.17; z-score, replicate A: -1.4; z-score, replicate B: -1; z-score, replicate C: -1.12; activity call: inactive
KLF17 (KLF transcription factor 17) — mean z-score: 1.43; z-score, replicate A: 1.29; z-score, replicate B: 1.49; z-score, replicate C: 1.51; activity call: inactive
PRXL2B (peroxiredoxin like 2B) — mean z-score: 0.62; z-score, replicate A: 0.71; z-score, replicate B: 0.42; z-score, replicate C: 0.74; activity call: inactive
TRIM5 (tripartite motif containing 5) — mean z-score: -0.61; z-score, replicate A: -0.49; z-score, replicate B: -1; z-score, replicate C: -0.34; activity call: inactive
BBS10 (Bardet-Biedl syndrome 10) — mean z-score: -0.28; z-score, replicate A: -0.28; z-score, replicate B: -0.59; z-score, replicate C: 0.02; activity call: inactive
CHD3 (chromodomain helicase DNA binding protein 3) — mean z-score: -0.18; z-score, replicate A: -0.23; z-score, replicate B: -0.11; z-score, replicate C: -0.21; activity call: inactive

Quoted from the listing (3 entries):
FAM225B (family with sequence similarity 225 member B) — mean z-score: -1.17; z-score, replicate A: -1.4; z-score, replicate B: -1; z-score, replicate C: -1.12; activity call: inactive
KLF17 (KLF transcription factor 17) — mean z-score: 1.43; z-score, replicate A: 1.29; z-score, replicate B: 1.49; z-score, replicate C: 1.51; activity call: inactive
PRXL2B (peroxiredoxin like 2B) — mean z-score: 0.62; z-score, replicate A: 0.71; z-score, replicate B: 0.42; z-score, replicate C: 0.74; activity call: inactive

Continued.
PDXDC1 (pyridoxal dependent decarboxylase domain containing 1) — mean z-score: -0.73; z-score, replicate A: -0.32; z-score, replicate B: -1.03; z-score, replicate C: -0.84; activity call: inactive
PPP2R2A (protein phosphatase 2 regulatory subunit Balpha) — mean z-score: -0.15; z-score, replicate A: -0.06; z-score, replicate B: -0.2; z-score, replicate C: -0.2; activity call: inactive
PAXX (PAXX non-homologous end joining factor) — mean z-score: 0.2; z-score, replicate A: -0.13; z-score, replicate B: 0.07; z-score, replicate C: 0.65; activity call: inactive
LCIIAR (lung cancer immune cell infiltration associated lncRNA) — mean z-score: 0.71; z-score, replicate A: 0.5; z-score, replicate B: 0.53; z-score, replicate C: 1.11; activity call: inactive
ASIC3 (acid sensing ion channel subunit 3) — mean z-score: -0.67; z-score, replicate A: -0.81; z-score, replicate B: -0.59; z-score, replicate C: -0.61; activity call: inactive
DSP (desmoplakin) — mean z-score: 0.52; z-score, replicate A: 0.68; z-score, replicate B: 0.42; z-score, replicate C: 0.47; activity call: inactive
DIRAS3 (DIRAS family GTPase 3) — mean z-score: 0.71; z-score, replicate A: 0.65; z-score, replicate B: 0.9; z-score, replicate C: 0.57; activity call: inactive
LOC387942 (retired record) — mean z-score: -0.58; z-score, replicate A: -0.66; z-score, replicate B: -0.47; z-score, replicate C: -0.6; activity call: inactive
FGD5 (FYVE, RhoGEF and PH domain containing 5) — mean z-score: 0.11; z-score, replicate A: -0.3; z-score, replicate B: 0.18; z-score, replicate C: 0.47; activity call: inactive
GIN1 (gypsy retrotransposon integrase 1) — mean z-score: -1.64; z-score, replicate A: -1.75; z-score, replicate B: -1.64; z-score, replicate C: -1.53; activity call: inactive
HSPA1A (heat shock protein family A (Hsp70) member 1A) — mean z-score: 0.97; z-score, replicate A: 0.73; z-score, replicate B: 0.97; z-score, replicate C: 1.2; activity call: inactive
RRN3P1 (RRN3 pseudogene 1) — mean z-score: -0.6; z-score, replicate A: -0.38; z-score, replicate B: -0.8; z-score, replicate C: -0.63; activity call: inactive
PTCHD4 (patched domain containing 4) — mean z-score: -0.35; z-score, replicate A: -0.83; z-score, replicate B: -0.14; z-score, replicate C: -0.1; activity call: inactive
KIR2DS3 — mean z-score: 0.83; z-score, replicate A: 1.23; z-score, replicate B: 0.85; z-score, replicate C: 0.41; activity call: inactive
